Data as given in publication PMC8866119, “Omicron escapes the majority of existing SARS-CoV-2 neutralizing antibodies” (2021).

Molecular target: SARS-CoV-2 wild-type RBD (SARS-CoV-2) (UniProt P0DTC2)
Experiment: BLI

BRII-196 was tested, and the Kd was 1.83 nM and the koff was 0.000708 s⁻¹.
